A mixed list of measured activities; the numbers were collected in NIAID ChemDB.

Shared fields: growth or infection tests; species: Cryptococcus neoformans; endpoint: MIC50

Neighbouring rows are from separate reports. Blank or dashed fields: not listed here. A number after MIC or MFC names an inhibition level or a share of isolates.

structure	strain	value
CN(CCc1ccc(-c2csc(-c3ccc(Cl)cc3)n2)cc1)CC(C)(C)N		4 µg/mL
N=C(N)c1ccc(OCCCC2CCN(CCCOc3ccc(C(=N)N)cc3)CC2)cc1	33 clinical isolates	0.0625 µg/mL
CCCCCOc1ccc(-c2cc(-c3ccc(C(=O)N[C@H]4C[C@@H](O)[C@@H](O)NC(=O)[C@@H]5[C@@H](O)[C@@H](C)CN5C(=O)[C@H]([C@H](O)CC(N)=O)NC(=O)[C@H]([C@H](O)[C@@H](O)c5ccc(O)c(OS(=O)(=O)O)c5)NC(=O)[C@@H]5C[C@@H](O)CN5C(=O)[C@H]([C@@H](C)O)NC4=O)cc3)no2)cc1	5 isolates	>64 µg/mL
C[C@H]1[C@H](O)[C@@H](C)/C=C/C=C/C=C/C=C/C=C/C=C/C=C/[C@H](O[C@@H]2O[C@H](C)[C@@H](O)[C@H](N)[C@@H]2O)C[C@@H]2O[C@](O)(C[C@@H](O)C[C@@H](O)CC[C@H](O)[C@@H](O)C[C@@H](O)CC(=O)O[C@H]1C)C[C@H](O)[C@H]2C(=O)O	12 strains	0.06 µg/mL
COC(=O)[C@H]1[C@@H]2C[C@@H](O[C@@H]3O[C@H](C)[C@@H](O)[C@H](N)[C@@H]3O)/C=C/C=C/C=C/C=C/C=C/C=C/C=C/[C@H](C)[C@@H](O)[C@H](C)[C@H](C)OC(=O)C[C@H](O)C[C@H](O)[C@@H](O)CC[C@H](O)C[C@H](O)C[C@](O)(C[C@@H]1O)O2	42 isolates (HIV+)	0.03 µg/mL
C[C@H]1[C@H](O)[C@@H](C)/C=C/C=C/C=C/C=C/C=C/C=C/C=C/[C@H](O[C@@H]2O[C@H](C)[C@@H](O)[C@H](N)[C@@H]2O)C[C@@H]2O[C@](O)(C[C@@H](O)C[C@@H](O)CC[C@H](O)[C@@H](O)C[C@@H](O)CC(=O)O[C@H]1C)C[C@H](O)[C@H]2C(=O)O	12 strains	1 µg/mL
C[C@H]1[C@H](O)[C@@H](C)/C=C/C=C/C=C/C=C/C=C/C=C/C=C/[C@H](O[C@@H]2O[C@H](C)[C@@H](O)[C@H](N)[C@@H]2O)C[C@@H]2O[C@](O)(C[C@@H](O)C[C@@H](O)CC[C@H](O)[C@@H](O)C[C@@H](O)CC(=O)O[C@H]1C)C[C@H](O)[C@H]2C(=O)O	19 strains	0.25 µg/mL
CCCCCCCCCCCCCCCC(=O)NC1CC(O)C(O)NC(=O)C2C(O)C(C)CN2C(=O)C(C(O)CC(N)=O)NC(=O)C(C(O)Cc2ccc(O)c(OS(=O)(=O)O)c2)NC(=O)C2CC(O)CN2C(=O)C(C(C)O)NC1=O	YC203	>2.5 µg/mL
C[C@H]1[C@H](O)[C@@H](C)/C=C/C=C/C=C/C=C/C=C/C=C/C=C/[C@H](O[C@@H]2O[C@H](C)[C@@H](O)[C@H](N)[C@@H]2O)C[C@@H]2O[C@](O)(C[C@@H](O)C[C@@H](O)CC[C@H](O)[C@@H](O)C[C@@H](O)CC(=O)O[C@H]1C)C[C@H](O)[C@H]2C(=O)O	9 strains	1 µg/mL
Nc1[nH]c(=O)ncc1F	37 strains	4 µg/mL
COc1cc(O)c2c(c1)C(=O)c1c(cc3c(c1O)-c1c(cc(C)c(C(=O)NC(CO)C(=O)O)c1O)[C@H](OC1OC(C)C(O)C(OC4OCC(O)C(O)C4O)C1O)C3O)C2=O	32 isolates	2 µg/mL
C=C(C)C(O)Cc1c(O)ccc(C(=O)/C=C/c2ccc(O)cc2)c1O		7 µg/mL
C=C1CO[C@H]2[C@@H](C)OC(OC[C@@]34C[C@H]5[C@H](C)CC[C@@H]5[C@@]5(C=O)C[C@@H]3C=C(C(C)C)[C@@]45C(=O)O)C[C@@H]12	22 strains (serotype C)	0.5 µg/mL
CCCCCCCCCCCCCCCC(=O)NC1CCC(O)NC(=O)C2C(O)C(C)CN2C(=O)C(C(O)CC(N)=O)NC(=O)C(C(O)Cc2ccc(O)c(OS(=O)(=O)O)c2)NC(=O)C2CC(O)CN2C(=O)C(C(C)O)NC1=O	YC203	>2.5 µg/mL
CCN1CCC(O)(/C=C/c2ccc(Cl)cc2)C(C(=O)/C=C/c2ccc(Cl)cc2)C1	15 strains	1 µg/mL
C[C@H]1[C@H](O)[C@@H](C)/C=C/C=C/C=C/C=C/C=C/C=C/C=C/[C@H](O[C@@H]2O[C@H](C)[C@@H](O)[C@H](N)[C@@H]2O)C[C@@H]2O[C@](O)(C[C@@H](O)C[C@@H](O)CC[C@H](O)[C@@H](O)C[C@@H](O)CC(=O)O[C@H]1C)C[C@H](O)[C@H]2C(=O)O	15 isolates	0.125 µg/mL
CC(C)(N)CNCc1ccc(-c2csc(-c3ccc(Cl)cc3)n2)cc1		8 µg/mL
CCC(C)CC(C)CCCCCCCCC(=O)N[C@H]1C[C@@H](O)[C@H](NCCN)NC(=O)[C@@H]2[C@@H](O)CCN2C(=O)[C@H]([C@H](O)CCN)NC(=O)[C@H]([C@H](O)[C@@H](O)c2ccc(O)cc2)NC(=O)[C@@H]2C[C@@H](O)CN2C(=O)[C@H]([C@@H](C)O)NC1=O	10 strains	>16 µg/mL
CCC(C)n1ncn(-c2ccc(N3CCN(c4ccc(OC[C@H]5CO[C@](Cn6cncn6)(c6ccc(Cl)cc6Cl)O5)cc4)CC3)cc2)c1=O	373 isolates	0.25 µg/mL
C[C@H]1[C@H](O)[C@@H](C)/C=C/C=C/C=C/C=C/C=C/C=C/C=C/[C@H](O[C@@H]2O[C@H](C)[C@@H](O)[C@H](N)[C@@H]2O)C[C@@H]2O[C@](O)(C[C@@H](O)C[C@@H](O)CC[C@H](O)[C@@H](O)C[C@@H](O)CC(=O)O[C@H]1C)C[C@H](O)[C@H]2C(=O)O		0.05 µg/mL
CCC(C)n1ncn(-c2ccc(N3CCN(c4ccc(OC[C@H]5CO[C@](Cn6cncn6)(c6ccc(Cl)cc6Cl)O5)cc4)CC3)cc2)c1=O	15 strains	0.03 µg/mL
OC(Cn1cncn1)(Cn1cncn1)c1ccc(F)cc1F	ATCC 36556	3.75 µg/mL
CCCCCOc1ccc(-c2ccc(-c3ccc(C(=O)N[C@H]4C[C@@H](O)[C@@H](O)NC(=O)[C@@H]5[C@@H](O)[C@@H](C)CN5C(=O)[C@H]([C@H](C)O)NC(=O)[C@H]([C@H](O)[C@@H](O)c5ccc(O)cc5)NC(=O)[C@@H]5C[C@@H](O)CN5C(=O)[C@H]([C@H](C)O)NC4=O)cc3)cc2)cc1	15 strains	>8 µg/mL
CNCCN(C)CCc1ccc(-c2csc(-c3ccc(Cl)cc3)n2)cc1		2 µg/mL
Nc1[nH]c(=O)ncc1F	12 strains	8 µg/mL
C[C@@H](c1nc(-c2ccc(C#N)cc2)cs1)[C@](O)(Cn1cnnc1)c1ccc(F)cc1F	32 isolates	0.008 µg/mL